This is an account of results in patent US9625458B2, “Biosensor” (priority 2002, dated 2017).

The series can be described thus: Fluorescence emission spectra without and with saturating ligand (wavelength shift, ΔIstd, ΔRmax). The note with it: for λmax,apo (nm) / λmax,sat (nm): emission maximum; for λmax,apo (nm): absence of ligand; for λmax,sat (nm): saturating ligand (ligand column); for ΔIstd: standard intensity change; for ΔIstd / ΔRmax: unbound vs ligand-saturated; for ΔRmax: standard ratiometric change. In outline: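 Emission spectra of bPBP–fluorophore conjugates (50–1000 nM protein, 25 °C, stirred) recorded without and with saturating ligand, using fluorophore-specific excitation. Wavelength shift, ΔIstd (intensity change at the mid-point wavelength) and ΔRmax (maximal ratiometric change over enumerated band pairs, 2 nm steps, 10 nm width) derived.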

B1: dipeptide BP T44C NBD (conjugate)
chain: MKTLVYCSEGSPEGFNPQLFTSGTTYDASSVPLYNRLVEFKIGTCEVIPGLAEKWEVSEDGKTYTFHLRKGVKWHDNKEFKPTRELNADDVVFSFDRQKNAQNPYHKVSGGSYEYFEGMGLPELISEVKKVDDNTVQFVLTRPEAPFLADLAMDFASILSKEYADAMMKAGTPEKLDLNPIGTGPFQLQQYQKDSRIRYKAFDGYWGTKPQIDTLVFSITPDASVRYAKLQKNECQVMPYPNPADIARMKQDKSINLMEMPGLNVGYLSYNVQKKPLDDVKVRQALTYAVNKDAIIKAVYQGAGVSAKNLIPPTMWGYNDDVQDYTYDPEKAKALLKEAGLEKGFSIDLWAMPVQRPYNPNARRMAEMIQADWAKVGVQAKIVTYEWGEYLKRAKDGEHQTVMMGWTGDNGDPDNFFATLFSCAASEQGSNYSKWCYKPFEDLIQPARATDDHNKRVELYKQAQVVMHDQAPALIIAHSTVFEPVRKEVKGYVVDPLGKHHFENVSIE
modifications: left off: small tags and cut ends
With B1, the “λmax,apo (nm)” value stood at 539, the “λmax,sat (nm)” value turned out to be 536, the ΔIstd is 0.11 and the ΔRmax came to 0.30.

B2: dipeptide BP T44C Fluorescein (conjugate, UniProt P23847 29-535, looked up, variant T44C)
Dipeptide-binding protein: KTLVYCSEGSPEGFNPQLFTSGTTYDASSVPLYNRLVEFKIGTCEVIPGLAEKWEVSEDGKTYTFHLRKGVKWHDNKEFKPTRELNADDVVFSFDRQKNAQNPYHKVSGGSYEYFEGMGLPELISEVKKVDDNTVQFVLTRPEAPFLADLAMDFASILSKEYADAMMKAGTPEKLDLNPIGTGPFQLQQYQKDSRIRYKAFDGYWGTKPQIDTLVFSITPDASVRYAKLQKNECQVMPYPNPADIARMKQDKSINLMEMPGLNVGYLSYNVQKKPLDDVKVRQALTYAVNKDAIIKAVYQGAGVSAKNLIPPTMWGYNDDVQDYTYDPEKAKALLKEAGLEKGFSIDLWAMPVQRPYNPNARRMAEMIQADWAKVGVQAKIVTYEWGEYLKRAKDGEHQTVMMGWTGDNGDPDNFFATLFSCAASEQGSNYSKWCYKPFEDLIQPARATDDHNKRVELYKQAQVVMHDQAPALIIAHSTVFEPVRKEVKGYVVDPLGKHHFENVSIE
modifications: fluorescein label
Regarding B2, the “λmax,apo (nm)” value was found to be 522, the “λmax,sat (nm)” value turned out to be 522, the ΔIstd is reported as 0.05 and the ΔRmax stood at 0.21.

B3: dipeptide BP W315C Acrylodan (conjugate, UniProt P23847 29-535, looked up, variant W315C)
Dipeptide-binding protein: KTLVYCSEGSPEGFNPQLFTSGTTYDASSVPLYNRLVEFKIGTTEVIPGLAEKWEVSEDGKTYTFHLRKGVKWHDNKEFKPTRELNADDVVFSFDRQKNAQNPYHKVSGGSYEYFEGMGLPELISEVKKVDDNTVQFVLTRPEAPFLADLAMDFASILSKEYADAMMKAGTPEKLDLNPIGTGPFQLQQYQKDSRIRYKAFDGYWGTKPQIDTLVFSITPDASVRYAKLQKNECQVMPYPNPADIARMKQDKSINLMEMPGLNVGYLSYNVQKKPLDDVKVRQALTYAVNKDAIIKAVYQGAGVSAKNLIPPTMCGYNDDVQDYTYDPEKAKALLKEAGLEKGFSIDLWAMPVQRPYNPNARRMAEMIQADWAKVGVQAKIVTYEWGEYLKRAKDGEHQTVMMGWTGDNGDPDNFFATLFSCAASEQGSNYSKWCYKPFEDLIQPARATDDHNKRVELYKQAQVVMHDQAPALIIAHSTVFEPVRKEVKGYVVDPLGKHHFENVSIE
modifications: acrylodan conjugate
With B3, the “λmax,apo (nm)” value is 503, the “λmax,sat (nm)” value is given as 504, the ΔIstd came to 0.08 and the ΔRmax amounted to 0.47.

B4: dipeptide BP W315C JPW4045 (conjugate, UniProt P23847 29-535, looked up, variant W315C)
Dipeptide-binding protein: KTLVYCSEGSPEGFNPQLFTSGTTYDASSVPLYNRLVEFKIGTTEVIPGLAEKWEVSEDGKTYTFHLRKGVKWHDNKEFKPTRELNADDVVFSFDRQKNAQNPYHKVSGGSYEYFEGMGLPELISEVKKVDDNTVQFVLTRPEAPFLADLAMDFASILSKEYADAMMKAGTPEKLDLNPIGTGPFQLQQYQKDSRIRYKAFDGYWGTKPQIDTLVFSITPDASVRYAKLQKNECQVMPYPNPADIARMKQDKSINLMEMPGLNVGYLSYNVQKKPLDDVKVRQALTYAVNKDAIIKAVYQGAGVSAKNLIPPTMCGYNDDVQDYTYDPEKAKALLKEAGLEKGFSIDLWAMPVQRPYNPNARRMAEMIQADWAKVGVQAKIVTYEWGEYLKRAKDGEHQTVMMGWTGDNGDPDNFFATLFSCAASEQGSNYSKWCYKPFEDLIQPARATDDHNKRVELYKQAQVVMHDQAPALIIAHSTVFEPVRKEVKGYVVDPLGKHHFENVSIE
modifications: JPW4045 label
With B4, the “λmax,apo (nm)” value was 640, the “λmax,sat (nm)” value stood at 640, the ΔIstd amounted to 0.14 and the ΔRmax is on record as 0.55.

B5: dipeptide BP W315C JPW4042 (conjugate, UniProt P23847 29-535, looked up, variant W315C)
Dipeptide-binding protein: KTLVYCSEGSPEGFNPQLFTSGTTYDASSVPLYNRLVEFKIGTTEVIPGLAEKWEVSEDGKTYTFHLRKGVKWHDNKEFKPTRELNADDVVFSFDRQKNAQNPYHKVSGGSYEYFEGMGLPELISEVKKVDDNTVQFVLTRPEAPFLADLAMDFASILSKEYADAMMKAGTPEKLDLNPIGTGPFQLQQYQKDSRIRYKAFDGYWGTKPQIDTLVFSITPDASVRYAKLQKNECQVMPYPNPADIARMKQDKSINLMEMPGLNVGYLSYNVQKKPLDDVKVRQALTYAVNKDAIIKAVYQGAGVSAKNLIPPTMCGYNDDVQDYTYDPEKAKALLKEAGLEKGFSIDLWAMPVQRPYNPNARRMAEMIQADWAKVGVQAKIVTYEWGEYLKRAKDGEHQTVMMGWTGDNGDPDNFFATLFSCAASEQGSNYSKWCYKPFEDLIQPARATDDHNKRVELYKQAQVVMHDQAPALIIAHSTVFEPVRKEVKGYVVDPLGKHHFENVSIE
modifications: JPW4042 dye label
As for B5, the “λmax,apo (nm)” value was 645, the “λmax,sat (nm)” value is reported as 640, the ΔIstd is 0.05 and the ΔRmax was found to be 0.16.

B6: dipeptide BP W315C JPW4039 (conjugate, UniProt P23847 29-535, looked up, variant W315C)
Dipeptide-binding protein: KTLVYCSEGSPEGFNPQLFTSGTTYDASSVPLYNRLVEFKIGTTEVIPGLAEKWEVSEDGKTYTFHLRKGVKWHDNKEFKPTRELNADDVVFSFDRQKNAQNPYHKVSGGSYEYFEGMGLPELISEVKKVDDNTVQFVLTRPEAPFLADLAMDFASILSKEYADAMMKAGTPEKLDLNPIGTGPFQLQQYQKDSRIRYKAFDGYWGTKPQIDTLVFSITPDASVRYAKLQKNECQVMPYPNPADIARMKQDKSINLMEMPGLNVGYLSYNVQKKPLDDVKVRQALTYAVNKDAIIKAVYQGAGVSAKNLIPPTMCGYNDDVQDYTYDPEKAKALLKEAGLEKGFSIDLWAMPVQRPYNPNARRMAEMIQADWAKVGVQAKIVTYEWGEYLKRAKDGEHQTVMMGWTGDNGDPDNFFATLFSCAASEQGSNYSKWCYKPFEDLIQPARATDDHNKRVELYKQAQVVMHDQAPALIIAHSTVFEPVRKEVKGYVVDPLGKHHFENVSIE
modifications: JPW4039 dye conjugate
As for B6, the “λmax,apo (nm)” value was 594, the “λmax,sat (nm)” value is listed as 593, the ΔIstd is on record as 0.26 and the ΔRmax turned out to be 0.45.
